# Measured values published in PMC6346101, “The structure of the nucleoprotein of Influenza D shows that all Orthomyxoviridae nucleoproteins have a similar NP_(CORE), with or without a NP_(TAIL) for nuclear transport” (Scientific Reports, 2019).
# B1: His-tagged D/NP_(TAIL) (505-D/NP-552) (domain or fragment)
# chain: GSDVPRTGAKRRVGGADDVTLGTSQPKKRGRQGAGVESSMDIETVGED
# Target: T1, human importin-α7 without its IBB domain (amino-acids 58 to 536) (human, UniProt O60684 58-536)
# T1 construct: also called KPNA6; importins-α; not shown: His tag, N-terminal, cleaved
# Assay: SEC
# Conditions: both partners purified
binder,measurement,value
B1,binding result,binds
